A mixed list of measured activities; the numbers were collected in NIAID ChemDB.

Common to all: tests in culture; agent: HIV-1; method: cytopathic effect / MTT; endpoint: EC50

a–b is a range or a potency band.

compound	strain	cell line	changes	result
COc1c(N2CCN(CN3C(=O)C(=Nc4ccc(S(=O)(=O)Nc5nc(C)cc(C)n5)cc4)c4cc(F)ccc43)C(C)C2)c(F)cc2c(=O)c(C(=O)O)cn(C3CC3)c12	IIIB	MT-4	-	12.1 µM
CCCCCCO[C@@H]1O[C@H](COS(=O)(=O)O)[C@@H](OS(=O)(=O)O)[C@H](O[C@@H]2O[C@H](COS(=O)(=O)O)[C@@H](OS(=O)(=O)O)[C@H](O[C@@H]3O[C@H](COS(=O)(=O)O)[C@@H](OS(=O)(=O)O)[C@H](O[C@@H]4O[C@H](COS(=O)(=O)O)[C@@H](OS(=O)(=O)O)[C@H](OS(=O)(=O)O)[C@H]4OS(=O)(=O)O)[C@H]3OS(=O)(=O)O)[C@H]2OS(=O)(=O)O)[C@H]1OS(=O)(=O)O	IIIB	MT-4	-	36 µg/mL
O=C(Nc1sccc1S(=O)(=O)c1ccc(Cl)cc1)C(F)(F)C(F)(F)C(F)(F)F	IIIB	CEM + CEM/O	-	>8 µg/mL
N#CC1=CC2C(c3ccccc3N2CCCN2CCCCC2)N(c2ccc([N+](=O)[O-])cc2)C1=O	LAI	MT-4	-	<1 µM
CCc1c(Cc2cccc(Cc3[nH]c(=S)[nH]c(=O)c3CC)c2)[nH]c(=S)[nH]c1=O	-	MT-4	-	>100 µM
CC(C)(C)NC(=O)c1ccccc1NCC(O)Cn1c(C(=O)NC(C)(C)C)cc2cc(Cl)ccc21	IIIB	MT-4	-	>66 µM
Nc1nc(=O)n([C@H]2O[C@@H](CO)[C@@H](O)[C@H]2O)cc1F	LAI	CEM + CEM-SS	-	>100 µM
C=C1[C@H](n2cnc3c(=O)[nH]c(N)cc32)O[C@H](CO)[C@H]1O	-	MT-2	-	>100 µM
O=C(O)CCCCCCCCCCCCC(=O)NC(CO[C@@H]1O[C@H](CO)[C@H](O)[C@H](O)[C@H]1O)C(=O)NCCOS(=O)(=O)O	LAI	CEM + CEM-SS	-	10 µM
CCCCO[C@@H]1O[C@H](COS(=O)(=O)O)[C@@H](OS(=O)(=O)O)[C@H](O[C@@H]2O[C@H](COS(=O)(=O)O)[C@@H](OS(=O)(=O)O)[C@H](O[C@@H]3O[C@H](COS(=O)(=O)O)[C@@H](OS(=O)(=O)O)[C@H](O[C@@H]4O[C@H](COS(=O)(=O)O)[C@@H](OS(=O)(=O)O)[C@H](OS(=O)(=O)O)[C@H]4OS(=O)(=O)O)[C@H]3OS(=O)(=O)O)[C@H]2OS(=O)(=O)O)[C@H]1OS(=O)(=O)O	IIIB	MT-4	-	43 µg/mL
C=CCOCn1c(Cc2cccc(Cc3[nH]c(=O)[nH]c(=O)c3CC)c2)c(CC)c(=O)[nH]c1=O	RT-K103N+Y181C NNRTI-resistant	MT-4	RT-K103N Y181C	>100 µM
C=C1[C@H](O)[C@@H](CO)O[C@@H]1n1cnc2c(=O)[nH]c(N)cc21	-	MT-2	-	>100 µM
CSc1ncc(C(c2ccccc2)n2ccnc2)c(-c2ccccc2)n1	IIIB	MT-4	-	>61.7 µM
O=c1[nH]c(=O)n([C@@H]2CO[C@H](CO)O2)cc1I	IIIB	MT-2	-	>100 µM
CC(C)(C)CCO[C@@H]1O[C@H](COS(=O)(=O)O)[C@@H](OS(=O)(=O)O)[C@H](O[C@@H]2O[C@H](COS(=O)(=O)O)[C@@H](OS(=O)(=O)O)[C@H](O[C@@H]3O[C@H](COS(=O)(=O)O)[C@@H](OS(=O)(=O)O)[C@H](O[C@@H]4O[C@H](COS(=O)(=O)O)[C@@H](OS(=O)(=O)O)[C@H](O[C@@H]5O[C@H](COS(=O)(=O)O)[C@@H](OS(=O)(=O)O)[C@H](OS(=O)(=O)O)[C@H]5OS(=O)(=O)O)[C@H]4OS(=O)(=O)O)[C@H]3OS(=O)(=O)O)[C@H]2OS(=O)(=O)O)[C@H]1OS(=O)(=O)O	IIIB	MT-4	-	0.78 µg/mL
O=C(O)CCCCCCCCCCCCCNC(=O)C(CO[C@@H]1O[C@H](CO)[C@H](O)[C@H](O)[C@H]1O)NC(=O)CCCCCCCCCCC(=O)O	IIIB	MT-4	-	>100 µM
CCOC(=O)c1cn(CC(O)CNc2ccccc2)cc1-c1ccccc1	IIIB	MT-4	-	>45 µM
CCOCn1c(C(O)C2=CCCCC2)c(CC)c(=O)[nH]c1=O	HTLV-IIIB WT	MT-4	-	3.8 µM
CCN(CC)c1ccc(/C=C2\C(=O)Nc3ccc(S(=O)(=O)N(CC(C)C)C[C@@H](O)[C@H](Cc4ccccc4)NC(=O)O[C@H]4CO[C@H]5OCC[C@H]54)cc32)cc1O	LAI	MT-4	-	0.065 µM
O=C1Nc2sccc2S(=O)(=O)c2ccccc21	IIIB	CEM + CEM/O	-	>200 µg/mL
Cc1cc(C)nc(NS(=O)(=O)c2ccc(N=C3C(=O)N(CN4CCN(c5cc6c(cc5F)c(=O)c(C(=O)O)cn6C)CC4C)c4ccccc43)cc2)n1	IIIB	MT-4	-	22.6 µM
O=P(O)(O)OP(=O)(O)OP(=O)(O)O	IIIB	CEM	-	>100 µg/mL
Nc1nc(=O)n([C@@H]2C[C@@H](O)[C@H](CO)O2)cc1F	IIIB	MT-4	-	>100 µM
CCOCn1c(Cc2ccccc2)c(C(C)C)c(=O)[nH]c1=O	N119 (Y181C)	MT-4	-	>100 µM
Nc1ncc(C(c2ccccc2)n2ccnc2)c(-c2ccccc2)n1	IIIB	MT-4	-	>134 µM
COC(=O)c1ccccc1NCC(O)Cn1c(C(=O)NC(C)(C)C)cc2ccccc21	IIIB	MT-4	-	>39 µM
CCN(CC)CCN1C(=O)C2C3C=CC(C3=C(c3ccccc3)c3ccccc3)C2C1=O	IIIB	MT-4	-	>27 µM
CCc1c(Cc2cccc(Cc3nc(SC)nc(OC)c3CC)c2)nc(SC)nc1OC	RT-K103N+Y181C NNRTI-resistant	MT-4	RT-K103N Y181C	>100 µM
COc1ccc(N2CCN(CN3C(=O)C(=Nc4ccc(S(=O)(=O)Nc5nc(C)cc(C)n5)cc4)c4cc(F)ccc43)CC2)cc1	IIIB	MT-4	-	>43.32 µM
CC(=O)Nc1sccc1S(=O)(=O)c1ccccc1[N+](=O)[O-]	IIIB	CEM + CEM/O	-	>1.6 µg/mL
CC(C)CN(C[C@@H](O)[C@H](Cc1ccccc1)NC(=O)O[C@H]1CO[C@H]2OCC[C@H]21)S(=O)(=O)c1ccc2c(c1)/C(=C/c1ccccc1O)C(=O)N2	LAI	MT-4	-	0.071 µM
O=C1NC(=O)C2C1[C@@H]1C=C[C@H]2C1=C(c1ccccc1)c1ccccc1	IIIB	MT-4	-	>51 µM
CCOCn1c(C(O)C=C(C)C)c(CC)c(=O)[nH]c1=O	HTLV-IIIB WT	MT-4	-	>100 µM
CCCCCCO[C@@H]1O[C@H](COS(=O)(=O)O)[C@@H](OS(=O)(=O)O)[C@H](O[C@@H]2O[C@H](COS(=O)(=O)O)[C@@H](OS(=O)(=O)O)[C@H](O[C@@H]3O[C@H](COS(=O)(=O)O)[C@@H](OS(=O)(=O)O)[C@H](O[C@@H]4O[C@H](COS(=O)(=O)O)[C@@H](OS(=O)(=O)O)[C@H](O[C@@H]5O[C@H](COS(=O)(=O)O)[C@@H](OS(=O)(=O)O)[C@H](OS(=O)(=O)O)[C@H]5OS(=O)(=O)O)[C@H]4OS(=O)(=O)O)[C@H]3OS(=O)(=O)O)[C@H]2OS(=O)(=O)O)[C@H]1OS(=O)(=O)O	IIIB	MT-4	-	1.1 µg/mL
CC(C)CN(C[C@@H](O)[C@H](Cc1ccccc1)NC(=O)O[C@H]1CO[C@H]2OCC[C@H]21)S(=O)(=O)c1ccc2c(c1)/C(=C/c1ccco1)C(=O)N2	F	MT-4	PR-L10F M46I M71V I84V	0.038 µM
N#Cc1cc2[nH]c3ccccc3c2n(-c2ccc([N+](=O)[O-])cc2)c1=O	E	MT-4	RT-F227C	1.99 µM
CC(=O)NS(=O)(=O)c1ccc(-c2c3nc(c(-c4ccc(S(=O)(=O)NC(C)=O)cc4)c4ccc([nH]4)c(-c4ccc(S(=O)(=O)NC(C)=O)cc4)c4nc(c(-c5ccc(S(=O)(=O)NC(C)=O)cc5)c5ccc2[nH]5)C=C4)C=C3)cc1	IIIB	MT-4	-	>35 µg/mL
N#CC1=CC2C(c3ccccc3N2Cc2ccccc2)N(c2ccc([N+](=O)[O-])cc2)C1=O	LAI	MT-4	-	1–32 µM
CC#C[C@@]1(CO)C=C[C@H](n2cc(C)c(=O)[nH]c2=O)O1	IIIB	MT-2	-	4 µM
CC(C)(C)NC(=O)c1ccccc1NCC(O)Cn1c(C(=O)NC(C)(C)C)cc2ccccc21	IIIB	MT-4	-	>27 µM
CCCCO[C@@H]1O[C@H](COS(=O)(=O)O)[C@@H](OS(=O)(=O)O)[C@H](O[C@@H]2O[C@H](COS(=O)(=O)O)[C@@H](OS(=O)(=O)O)[C@H](O[C@@H]3O[C@H](COS(=O)(=O)O)[C@@H](OS(=O)(=O)O)[C@H](O[C@@H]4O[C@H](COS(=O)(=O)O)[C@@H](OS(=O)(=O)O)[C@H](O[C@@H]5O[C@H](COS(=O)(=O)O)[C@@H](OS(=O)(=O)O)[C@H](OS(=O)(=O)O)[C@H]5OS(=O)(=O)O)[C@H]4OS(=O)(=O)O)[C@H]3OS(=O)(=O)O)[C@H]2OS(=O)(=O)O)[C@H]1OS(=O)(=O)O	IIIB	MT-4	-	3.4 µg/mL
c1ccc(-c2oncc2C(c2ccccc2)n2ccnc2)cc1	IIIB	MT-4	-	>76 µM
CC(=O)c1ccc(C)cc1NC(C(N)=O)c1c(Cl)cccc1Cl	IIIB	MT-4	-	0.013 µM
C=C1[C@H](n2ncc(N)nc2=O)O[C@H](CO)[C@H]1O	-	MT-2	-	>100 µM
Nc1nc(=O)n([C@H]2O[C@@H](CO)[C@H](O)[C@@H]2O)cc1F	IIIB	MT-4	-	>100 µM
CN1CCN(CCCCN2c3ccccc3C3C2C=C(C#N)C(=O)N3c2ccc([N+](=O)[O-])cc2)CC1	LAI	MT-4	-	1–32 µM
Cc1ccc(/C=C2\C(=O)Nc3ccc(S(=O)(=O)N(CC(C)C)C[C@@H](O)[C@H](Cc4ccccc4)NC(=O)O[C@H]4CO[C@H]5OCC[C@H]54)cc32)o1	LAI	MT-4	-	0.009 µM
Cc1cc(C)nc(NS(=O)(=O)c2ccc(N=C3C(=O)N(CN4CCN(c5cc6c(cc5F)c(=O)c(C(=O)O)cn6C5CC5)CC4)c4ccccc43)cc2)n1	IIIB	MT-4	-	31.06 µM
c1ccc(-c2ncc(C(c3ccccc3)n3cncn3)c(-c3ccccc3)n2)cc1	IIIB	MT-4	-	>200 µM
CC(=O)Nc1sccc1S(=O)(=O)c1ccc(Cl)cc1	IIIB	CEM + CEM/O	-	>40 µg/mL
CCOC(=O)c1ccn(CC(O)CNc2ccccc2)c1	IIIB	MT-4	-	>200 µM
CCc1c(Cc2cccc(Cc3nc(SC)n(C)c(=O)c3CC)c2)nc(SC)nc1OC	-	MT-4	-	>80 µM
CCOC(=O)c1cn(CC(O)CSc2ccccc2)cc1-c1ccccc1	IIIB	MT-4	-	>75.3 µM
CN[C@@H]1[C@H](O[C@H]2[C@H](O[C@H]3[C@H](O)[C@@H](O)[C@H](N=C(N)N)[C@@H](O)[C@@H]3N=C(N)N)O[C@@H](C)[C@]2(O)C=O)O[C@@H](CO)[C@H](O)[C@H]1O	IIIB	MT-4	-	>200 µM
CCOC(=O)c1cc2cc(Cl)ccc2n1CC(O)CNc1ccccc1C(=O)OC	IIIB	MT-4	-	>39 µM
COCCOCCOCCOCCO[C@@H]1O[C@H](COS(=O)(=O)O)[C@@H](OS(=O)(=O)O)[C@H](O[C@@H]2O[C@H](COS(=O)(=O)O)[C@@H](OS(=O)(=O)O)[C@H](O[C@@H]3O[C@H](COS(=O)(=O)O)[C@@H](OS(=O)(=O)O)[C@H](O[C@@H]4O[C@H](COS(=O)(=O)O)[C@@H](OS(=O)(=O)O)[C@H](O[C@@H]5O[C@H](COS(=O)(=O)O)[C@@H](OS(=O)(=O)O)[C@H](OS(=O)(=O)O)[C@H]5OS(=O)(=O)O)[C@H]4OS(=O)(=O)O)[C@H]3OS(=O)(=O)O)[C@H]2OS(=O)(=O)O)[C@H]1OS(=O)(=O)O	IIIB	MT-4	-	88 µg/mL

ECn: concentration that inhibits the pathogen or its effect by n%. Blank or dashed fields: not listed here. Conditions beyond the fields shown may differ between rows.